Compound potency records, mixed from different reports. Data source: NIAID ChemDB in PubChem.

All rows: host cell toxicity; cell line: PBMC; read-out: CC50

An empty or dashed field is not shown. CCn: concentration that lowers growth or viability of the cells by n%. Lines come from different laboratories, so protocols vary.

structure	read by	setting	result
CN1CCN(CCSc2nccc(-c3cccs3)n2)CC1			100 µM
Oc1ccc(-c2c3nc(c(-c4ccc(O)cc4O)c4ccc([nH]4)c(-c4ccc(O)cc4O)c4nc(c(-c5ccc(O)cc5O)c5ccc2[nH]5)C=C4)C=C3)c(O)c1			>100 µM
Cc1nnc2c3ccccc3c(N3CCc4ncccc4C3)nn12			3.37 µM
COc1cc(OC)cc(C(=O)OCc2nc3ccccc3nc2C)c1	MTS		>100 µM
O=C(CN1c2c(-c3ccccc3)n[nH]c2-c2ccccc2S1(=O)=O)N/N=C/c1ccccc1[N+](=O)[O-]			47.8 µM
Cc1cccc(C(C)C)c1NC(=O)NCCc1ccc2c(n1)NCCC2			10 µM
O=C(CN1c2c(-c3ccccc3)n[nH]c2-c2ccccc2S1(=O)=O)N/N=C/c1cccc(Cl)c1			11.2 µM
Nc1ccn([C@@H]2C[C@H](CO)C(F)(F)C2)c(=O)n1			>100 µM
O=c1[nH]c(=O)n([C@H]2O[C@@H](CO)[C@H](O)C2(F)F)cc1Cl			>100 µM
COc1cc([N+](=O)[O-])c(S(=O)(=O)[O-])cc1N=N/C(=N\Nc1cc(S(=O)(=O)[O-])c([N+](=O)[O-])cc1OC)C(=O)Nc1ccccc1	trypan blue		548 µM
COc1cc(OC)c(C(=O)OCc2nc3ccccc3nc2C)cc1OC	MTS		>100 µM
CSc1ccccc1OC(C)=O	MTT		340 µM
C[C@H](Cn1cnc2c(N)ncnc21)OCP(=O)(O)O	MTT		≥10 µM
C[n+]1ccc(-c2c3nc(c(-c4ccccc4)c4ccc([nH]4)c(-c4ccccc4)c4nc(c(-c5cc[n+](C)cc5)c5ccc2[nH]5)C=C4)C=C3)cc1			>100 µM
Cc1cn([C@@H]2C[C@H](CO)C(F)(F)C2)c(=O)[nH]c1=O			>100 µM
CN(C)c1ccc(/C=N/NC(=O)Cn2nc(-c3ccccc3)c3c2-c2ccccc2S(=O)(=O)N3C)cc1			14.4 µM
Nc1nc2c(ncn2[C@@H]2O[C@@H](CO)[C@H](O)C2(F)F)c(=O)[nH]1			>100 µM
Cc1nc2ccccc2nc1COC(=O)c1ccc(O)cc1	MTS		>100 µM
Cc1nc2ccccc2c(-c2ccc(Cl)cc2)c1[C@H](OC(C)(C)C)C(=O)O			136 µM
COc1ccc(/C=N/NC(=O)Cn2nc(-c3ccccc3)c3c2-c2ccccc2S(=O)(=O)N3C)c(OC)c1			>100 µM
Nc1nccc2c1ncn2[C@@H]1C=C(CO)[C@@H](O)[C@H]1O			10 µM
O=C(NCCc1ccc2c(n1)NCCC2)NC1CCCOC1			50 µM
CCCCc1cn(-c2cccc(S(=O)(=O)Nc3cccc4cnccc34)c2)nn1	fluorescence	72 h	63 µM
Oc1cc2c(cc1O)CN(c1nn3c(C4CC4)nnc3c3ccccc13)CC2			5.57 µM
COC(=O)c1ccc(C(=O)OCc2nc3ccccc3nc2C)cc1	MTS		>100 µM
O=C(CN1c2c(-c3ccccc3)n[nH]c2-c2ccccc2S1(=O)=O)N/N=C/c1ccc(Cl)cc1Cl			11.1 µM
Cc1ccc(Cl)c(NC(=O)NCCc2ccc3c(n2)NCCC3)c1			12 µM
Cc1cccc(-c2c3nc(c(-c4cccc(C)c4)c4ccc([nH]4)c(-c4cccc(C)c4)c4nc(c(-c5cccc(C)c5)c5ccc2[nH]5)C=C4)C=C3)c1			>100 µM
O=C(NCCc1ccc2c(n1)NCCC2)Nc1cccc(Cl)c1F			16 µM
CN(C)CCNc1nc(-c2cccs2)cc(-c2cc3ccccc3s2)n1			>100 µM
C1=Cc2nc1c(-c1ccccc1)c1ccc([nH]1)c(-c1ccccc1)c1nc(c(-c3ccccc3)c3ccc([nH]3)c2-c2ccccc2)C=C1			>100 µM
COc1ccc2nc(Cl)c(/C=C/C(=O)c3ccsc3)cc2c1	MTS		14 µM
CN(C)CCSc1cccc(-c2cc(-c3cccc(SCCN(C)C)c3)nc(SCCN(C)C)n2)c1			10 µM
C=Cc1c(C)c2cc3[nH]c(cc4nc(cc5nc(cc1[nH]2)C(C)=C5CCC(=O)OC)C(CCC(=O)OC)=C4C)c(C)c3C=C			>100 µM
CN1c2c(-c3ccccc3)nn(CC(=O)N/N=C/c3ccccc3Br)c2-c2ccccc2S1(=O)=O			>100 µM
O=C(NCCc1ccc2c(n1)NCCC2)Nc1ccc(F)nc1			27 µM
CC[C@]1(OCP(=O)(O)O)C[C@@H](n2cnc3c(N)ncnc32)C=C1F	MTT		≥10 µM
COc1ccc2nc(Cl)c(/C=C/C(=O)c3sccc3C)cc2c1	MTS		47.8 µM
Cc1c(-c2cccc(SCCN(C)C)c2)ncnc1-c1cccc(SCCN(C)C)c1			10 µM
[N-]=[N+]=N[C@H]1C[C@H](n2ccc(=O)[nH]c2=O)O[C@@H]1COP(=O)(O)OP(=O)(O)O[C@H]1O[C@H](CO)[C@H](O)[C@H](O)[C@H]1O			100 µM
COc1ccc(C(=O)OCc2nc3ccccc3nc2C)c(OC)c1OC	MTS		>100 µM
Nc1ncnc2c1ncn2[C@@H]1O[C@H](CO)[C@@H](F)[C@@H]1F			>100 µM
Cc1cc(C)c(Nc2nc(Cl)nc(Nc3ccc(C#N)nc3)n2)c(C)c1	MTT		46 µg/mL
Nc1nc(Cl)nc2c1ncn2[C@H]1O[C@H](CO)[C@@H](F)[C@@H]1F			9.4 µM
Cc1ccc(C(=O)OCc2nc3ccccc3nc2C)cc1O	MTS		>100 µM
Nc1nccc2c1ncn2[C@@H]1C[C@H](CO)[C@@H](O)[C@H]1O			10 µM
O=C(NCC1CCc2ccccc2N1)Nc1ccc(C(F)(F)F)cc1			50 µM
Oc1ccc(-c2c3nc(c(-c4ccc(O)c(O)c4)c4ccc([nH]4)c(-c4ccc(O)c(O)c4)c4nc(c(-c5ccc(O)c(O)c5)c5ccc2[nH]5)C=C4)C=C3)cc1O			>100 µM
CS(=O)(=O)Nc1ccc2c(c1)CN(c1nn3c(C4CC4)nnc3c3ccccc13)CC2			1.78 µM
O=C(NCCc1ccc2c(n1)NCCC2)Nc1cccc2c1OCC2			4.44 µM
Cc1nc2ccccc2nc1COC(=O)c1ccc(O)cc1O	MTS		>100 µM
Cc1nnc2c3ccccc3c(N3Cc4ccccc4C(C)(C)C3)nn12			57.7 µM
O=C(NCCc1ccc2c(n1)NCCC2)N1CCCCC1			50 µM
OCCN(CCO)c1nc(-c2cccs2)cc(-c2cccs2)n1			100 µM
COc1ccc(-c2c3nc(c(-c4ccc(OC)cc4)c4ccc([nH]4)c(-c4ccc(OC)cc4)c4nc(c(-c5ccc(OC)cc5)c5ccc2[nH]5)C=C4)C=C3)cc1			>200 µM
O=c1[nH]c(=O)n([C@@H]2O[C@@H](CO)[C@H](O)C2(F)F)cc1Cl			>100 µM
COc1ccc(/C=N/NC(=O)CN2c3c(-c4ccccc4)n[nH]c3-c3ccccc3S2(=O)=O)cc1			76.3 µM
CCCCC#CCSc1ccccc1OC(C)=O	MTT		105 µM
Cc1ccc2nc(Cl)c(/C=C/C(=O)c3cc(C)oc3C)cc2c1	MTS		>100 µM
CCCCOc1nc(N)c2c(n1)N(Cc1cccc(CN3CCCC3)c1)CC(=O)N2	luminescence		22 µM
CN1c2c(-c3ccccc3)nn(CC(=O)N/N=C/c3ccc(Cl)cc3)c2-c2ccccc2S1(=O)=O			>100 µM
C[n+]1cccc(-c2c3nc(c(-c4ccccc4)c4ccc([nH]4)c(-c4ccccc4)c4nc(c(-c5ccc[n+](C)c5)c5ccc2[nH]5)C=C4)C=C3)c1			>100 µM
COc1ccc2nc(Cl)c(/C=C/C(=O)c3ccc(Br)s3)cc2c1	MTS		17.3 µM
CC(C)c1nnc2c3ccccc3c(N3CCc4ccccc4C3)nn12			0.96 µM
Nc1nc2c(ncn2[C@@H]2C=C(F)[C@H](CO)C2)c(=O)[nH]1			>100 µM
Cc1nccn1-c1cccc(CCNC(=O)Nc2cccc(F)c2)n1			19.7 µM
Nc1ncnc2c1ncn2[C@@H]1C=C(F)[C@H](CO)C1			>100 µM
CC(=O)Oc1ccccc1C(=O)O	MTT		8977 µM